Consider two molecules from PMC8791477, “Evaluation of SARS-CoV-2 entry, inflammation and new therapeutics in human lung tissue cells” (PLoS Pathogens, 2022).

The test system of the experiment is ACE2 expression. As to the kind of experiment: Modulation of ACE2 expression in enriched AT-II cells of HLT (flow cytometry). As to conditions: 20h, IL-1β 10 ng/ml, IL-10 and GM-CSF 100 ng/ml, IFN 100 U/ml.

For the molecule IFN-α2, the “ACE2 expression in enriched AT-II cells after immune stimuli (in words)” value is given as “did not impact ACE2 protein production”.

B1: IFN-β1 (protein, UniProt P01574 22-187, looked up)
Interferon beta: MSYNLLGFLQRSSNFQCQKLLWQLNGRLEYCLKDRMNFDIPEEIKQLQQFQKEDAALTIYEMLQNIFAIFRQDSSSTGWNETIVENLLANVYHQINHLKTVLEEKLEKEDFTRGKLMSSLHLKRYYGRILHYLKAKEYSHCAWTIVRVEILRNFYFINRLTGYLRN
On to B1, for which the “ACE2 expression in enriched AT-II cells after immune stimuli (in words)” value was “did not impact ACE2 protein production”.
